Anti-infective test results gathered from many reports (values: NIAID ChemDB through PubChem).

Shared fields: growth or infection tests; agent: Candida albicans; endpoint: MFC

Lines come from different laboratories, so protocols vary. An empty or dashed field is not shown.

smiles | strain | result
N/C(=N/N=C1CCCCCCC1)SCc1ccccc1Cl |  | >200 µg/mL
Cc1cc(-c2cc(C)on2)n(CCO)n1 |  | >200 µM
Fc1cccc(CO/N=C2\c3ccccc3OCC2n2cncn2)c1 | ATCC 10231 | >64 µg/mL
CCn1nc(C)cc1-c1cc(C)on1 |  | >200 µM
CC1(C)CC[C@]2(C(=O)O)CC[C@]3(C)C(=CC[C@@H]4[C@@]5(C)CC[C@H](OC6O[C@H](CO)[C@@H](O)[C@H](O)[C@H]6OC6O[C@H](CO)[C@@H](O)[C@H](O)[C@H]6O)C(C)(C)[C@@H]5CC[C@]43C)[C@@H]2C1 | Y0109 | >100 µg/mL
Brc1ccc(CO/N=C2/c3ccccc3OCC2n2cncn2)cc1 | ATCC 10231 | 64 µg/mL
C[C@@H]1O[C@@H](O[C@H]2[C@H](O)[C@@H](O)C(OC3[C@H](O[C@H]4CC[C@]5(C)[C@H]6CC=C7[C@@H]8CC(C)(C)CC[C@]8(C(=O)O)CC[C@@]7(C)[C@]6(C)CC[C@H]5C4(C)C)OC[C@H](O)[C@@H]3O)O[C@@H]2CO)[C@H](O)[C@H](O)[C@H]1O | ATCC 90029 | >100 µg/mL
COC1CC2CCC(C)C(O)(O2)C(=O)C(=O)N2CCCCC2C(=O)OC(C(C)CC2CCC(O)C(OC)C2)CC(=O)C(C)/C=C(\C)C(O)C(OC)C(=O)C(C)C[C@](C)(N(O)C(=O)NN2CCCCC2)/C=C/C=C/C=C/1C | RBP1/RBP1 | >100 µg/mL
Cc1cc(-c2c(N=O)c(C)nn2C)no1 |  | 25 µM
COC1CC2CCC(C)C(O)(O2)C(=O)C(=O)N2CCCCC2C(=O)OC(C(C)CC2CCC(O)C(OC)C2)CC(=O)C(C)/C=C(\C)C(O)[C@@](OC)(N(O)C(=O)OCC(C)C)C(=O)C(C)CC(C)/C=C/C=C/C=C/1C | TOR1-1/TOR1 | >100 µg/mL
Clc1ccc2c(c1)OCC(n1cnnc1)/C2=N\OCc1ccccc1 | ATCC 10231 | >64 µg/mL
CCC(C)CC(C)CCCCCCCCC(=O)NC1CCCNC(=O)[C@@H]2[C@@H](O)[C@@H](C)CN2C(=O)[C@H]([C@H](O)CC(N)=O)NC(=O)[C@H](CCc2ccc(O)cc2)NC(=O)[C@@H]2C[C@@H](O)CN2C(=O)[C@H]([C@@H](C)O)NC1=O | MY1750 | 0.5 µg/mL
c1ccc(-c2csc(NN=C3CCCCCCCC3)n2)cc1 |  | >100 µg/mL
CCC(C)CC(C)CCCCCCCCC(=O)NC1C[C@H](O)[C@@H](O)NC(=O)[C@@H]2C[C@@H](O)CN2C(=O)[C@H]([C@H](O)CC(N)=O)NC(=O)[C@H](C(O)[C@H](O)c2ccc(O)cc2)NC(=O)[C@@H]2C[C@@H](O)CN2C(=O)[C@H]([C@@H](C)O)NC1=O | MY1055 | 2 µg/mL
CC1(C)CC[C@]2(C(=O)O)CC[C@]3(C)C(=CC[C@@H]4[C@@]5(C)CC[C@H](OC6O[C@H](CO)[C@@H](O)[C@H](O)[C@H]6O)[C@@](C)(CO)[C@@H]5CC[C@]43C)[C@@H]2C1 | Clinical isolates | >100 µg/mL
Clc1ccc(CO/N=C2\c3ccccc3OCC2n2cncn2)cc1 | ATCC 10231 | >64 µg/mL
NC(=NC1CCCC1)c1ccc(-c2ccc(-c3ccc(C(N)=NC4CCCC4)cc3)o2)cc1 | Isolate CA1247 | 50 µg/mL
N/C(=N/N=C1CCCCCC1)SCc1ccc(Cl)cc1Cl |  | >200 µg/mL
CCn1nc(C)c(N=O)c1-c1cc(C)on1 |  | 19 µM
N/C(=N/N=C1CCCC1)SCc1ccc(Cl)cc1Cl |  | >200 µg/mL
CCC(C)CC(C)CCCCCCCCC(=O)NC1CCCNC(=O)[C@@H]2[C@@H](O)CCN2C(=O)[C@H]([C@H](O)CC(N)=O)NC(=O)[C@H](C(O)[C@H](O)c2ccc(O)cc2)NC(=O)[C@@H]2C[C@@H](O)CN2C(=O)[C@H]([C@@H](C)O)NC1=O | MY1750 | 16 µg/mL
Cc1cc(-c2cc(C)n(C)n2)no1 |  | >200 µM
C[C@@H]1O[C@@H](O[C@H]2[C@H](O)[C@@H](O)C(OC3[C@H](O[C@H]4CC[C@@]5(C)[C@@H](CC[C@]6(C)[C@@H]5CC=C5[C@@H]7CC(C)(C)CC[C@]7(C(=O)O)CC[C@]56C)[C@]4(C)CO)OC[C@H](O)[C@@H]3O)O[C@@H]2CO)[C@H](O)[C@H](O)[C@H]1O | Clinical isolates | 25 µg/mL

For reference, 2 entries again:

smiles	strain	result
CCC(C)CC(C)CCCCCCCCC(=O)NC1CCCNC(=O)[C@@H]2[C@@H](O)[C@@H](C)CN2C(=O)[C@H]([C@H](O)CC(N)=O)NC(=O)[C@H](CCc2ccc(O)cc2)NC(=O)[C@@H]2C[C@@H](O)CN2C(=O)[C@H]([C@@H](C)O)NC1=O	MY1750	0.5 µg/mL
C[C@@H]1O[C@@H](O[C@H]2[C@H](O)[C@@H](O)C(OC3[C@H](O[C@H]4CC[C@]5(C)[C@H]6CC=C7[C@@H]8CC(C)(C)CC[C@]8(C(=O)O)CC[C@@]7(C)[C@]6(C)CC[C@H]5C4(C)C)OC[C@H](O)[C@@H]3O)O[C@@H]2CO)[C@H](O)[C@H](O)[C@H]1O	ATCC 90029	>100 µg/mL